Measurements reported in PubChem BioAssay AID1259414 (Drosophila RNAi Screening Center, 2018)

- Screen: 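Genome-wide screen for host control of endosymbiont load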 (primary screen)
- Cells: Drosophila JW18 cells infected with Wolbachia
- Knock-down reagent: long dsRNA against Drosophila genes, 0.25 µg dsRNA per well of a 384-well plate
- Duration: 5 days
- Challenge: cells persistently infected with Wolbachia before knock-down; no added drug
- Measurement: 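Imaged fluorescence in situ signal for Wolbachia 23S rRNA per DAPI-counted host cell, given as a robust z-score within each plate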
- Direction: Wolbachia per cell robust z: higher = more Wolbachia per host cell than the plate typical
- Rule for the call: 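Active if absolute robust z reaches 1.5 in two or more of three replicates, leaving out multi- or no-target dsRNAs, genes unexpressed in JW18 and A1 wells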
The deposit covers about 24,000 reagents; below is an unselected part of those that have a named target and a result. In the full data, about 1,210 (5%) got an active call. 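Inactive calls also include excluded dsRNAs with several or no targets, genes unexpressed in JW18, and well A1, regardless of score.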 Reagents against one gene are numbered here. A plus sign joins genes that one reagent is predicted to hit.

target gene,reagent,"Wolbachia per cell robust z, rep 1","Wolbachia per cell robust z, rep 2","Wolbachia per cell robust z, rep 3",activity call
CG2278,1,0.0788,1.06,0.206,inactive
CG30376,1,-0.591,-0.402,0.506,inactive
Hsp67Bc (Heat shock gene 67Bc),1,0.767,-0.774,-0.579,inactive
Hsp67Bc (Heat shock gene 67Bc),2,-0.16,0.499,0.294,inactive
CG7730,1,0.585,0.676,-0.309,inactive
SclA + SclB,1,-2.09,-0.858,0.271,inactive
SclA + SclB,2,-1.22,-0.285,-1.69,inactive
Rrp6,1,0.414,1.01,1.33,inactive
ksh (kish),1,1,0.87,0.943,inactive
ksh (kish),2,-0.446,0.204,-0.857,inactive
sna (snail),1,-0.807,0.651,1.03,inactive
laf (labial associated factor),1,-0.612,2.55,-9.25,inactive
Ugt37A1 (UDP-glycosyltransferase family 37 member A1),1,0.193,0.145,-0.556,inactive
hrm (hermes),1,-4.45,-0.369,-0.221,inactive
CG43052,1,0.396,-0.27,-0.394,inactive
CG15203,1,0.108,-1.92,0.601,inactive
CG12177,1,0.308,0.647,0.113,inactive
CG12177,2,-0.911,0.607,-1.14,inactive
CG12177,3,-0.891,0.311,-0.612,inactive
CG18048,1,-1.65,-0.231,-1.29,inactive
CG18048,2,-0.959,-0.277,-0.243,inactive
CG9609,1,1.16,0.307,-0.445,inactive
CG9609,2,0.931,0.00568,0.384,inactive
CG9609,3,-1.24,-1.7,-2.13,active
CG31997,1,0.00989,0.214,-0.56,inactive
jbug (jitterbug),1,0.0443,0.626,-1.5,inactive
jbug (jitterbug),2,-1.22,-0.948,-1.05,inactive
jbug (jitterbug),3,0.337,-3.51,0.162,inactive
jbug (jitterbug),4,1.47,1.29,1.07,inactive
jbug (jitterbug),5,0.61,-0.139,-0.578,inactive
CG12134,1,0.762,-0.297,0.843,inactive
CG12134,2,-0.516,0.0302,-0.543,inactive
Cubn (Cubilin),1,0.325,1.16,2.32,inactive
Cubn (Cubilin),2,1.1,0.271,0.0949,inactive
qua (quail),1,-0.268,-1.2,-0.694,inactive
rnh1 (ribonuclease H1),1,-1.95,0.971,-1.29,inactive
CG42237,1,-1.82,0.682,0.581,inactive
SCCRO4 (Squamous cell carcinoma-related oncogene 4),1,0.55,-0.592,-0.846,inactive
CG7135,1,-2.09,-0.983,-0.346,inactive
CG7135,2,-1.43,-1.55,-0.476,inactive
lncRNA:CR32582 (long non-coding RNA:CR32582),1,-0.416,-0.674,-0.836,inactive
CG6310,1,0.443,-5.34,-0.579,inactive
Pkn + Tsen15,1,0.508,-0.202,0.129,inactive
Pkn + Tsen15,2,1.15,0.2,-0.037,inactive
Osi1 (Osiris 1),1,-1.08,-0.331,-1.26,inactive

Continued; the last 6 above are carried over.
target gene,reagent,"Wolbachia per cell robust z, rep 1","Wolbachia per cell robust z, rep 2","Wolbachia per cell robust z, rep 3",activity call
CG7135,2,-1.43,-1.55,-0.476,inactive
lncRNA:CR32582 (long non-coding RNA:CR32582),1,-0.416,-0.674,-0.836,inactive
CG6310,1,0.443,-5.34,-0.579,inactive
Pkn + Tsen15,1,0.508,-0.202,0.129,inactive
Pkn + Tsen15,2,1.15,0.2,-0.037,inactive
Osi1 (Osiris 1),1,-1.08,-0.331,-1.26,inactive
su(sable) (suppressor of sable),1,1.15,-0.92,0.784,inactive
CG18178,1,-0.406,0.632,-0.377,inactive
Acph-1 (Acid phosphatase 1),1,0.16,-4.28,-0.514,inactive
shps (sheepish),1,-0.25,0.472,-0.88,inactive
Ilp5 (Insulin-like peptide 5),1,-1.24,-3.36,-0.559,inactive
GstD11 (Glutathione S transferase D11),1,-4.13,0.826,-1.76,inactive
GstD11 (Glutathione S transferase D11),2,-0.268,-1.13,-0.136,inactive
eIF3k (eukaryotic translation initiation factor 3 subunit k),1,2.11,0.387,1.44,inactive
eIF3k (eukaryotic translation initiation factor 3 subunit k),2,-0.427,-1.3,-0.159,inactive
Fbxl4 (F box and leucine-rich-repeat gene 4),1,0.285,-4.87,0.768,inactive
CG7889,1,-0.105,0.514,-0.27,inactive
CG7889,2,0.0651,-0.437,-3.57,inactive
Cypl (Cyclophilin-like),1,0.911,1.22,-2.11,inactive
Cypl (Cyclophilin-like),2,0.344,-1.27,-0.855,inactive
CG32295,1,0.675,-1.6,-0.763,inactive
Fbw5 (F-box and WD repeat domain containing 5),1,0.0371,-0.679,-0.0116,inactive
Fbw5 (F-box and WD repeat domain containing 5),2,-1.09,-4.34,0.775,inactive
rtet (tetracycline resistance),1,-0.922,-0.807,-7.92,inactive
Nmda1 (N-methyl-D-aspartate receptor-associated protein),1,-0.519,-1.4,0.166,inactive
Nmda1 (N-methyl-D-aspartate receptor-associated protein),2,0.701,-0.197,1.45,inactive
GstD6 (Glutathione S transferase D6),1,-0.657,0.3,-0.198,inactive
GstD6 (Glutathione S transferase D6),2,-0.835,-2.66,0.08,inactive
"AP-2sigma (Adaptor Protein complex 2, sigma subunit)",1,-0.262,0.389,0.23,inactive
